Measured data: PubChem BioAssay AID1259414 (Drosophila RNAi Screening Center, 2018)

- Test: 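Genome-wide screen for host control of endosymbiont load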 (primary screen)
- System: Drosophila JW18 cells infected with Wolbachia
- Knock-down reagent: long dsRNA against Drosophila genes, 0.25 µg dsRNA per well of a 384-well plate
- Duration: 5 days
- Conditions: cells persistently infected with Wolbachia before knock-down; no added drug
- Measurement: 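Automated imaging of bacterial rRNA staining divided by host cell count, reported as plate-normalised robust z-score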
- Scale: Wolbachia per cell robust z: higher = more Wolbachia per host cell than the plate typical
- Rule for the call: 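Hit when robust z is 1.5 or more, or -1.5 or less, in at least two of three replicates; excludes dsRNAs with several or no targets, genes not expressed in JW18 and well A1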
In all, the deposit lists about 24,000 reagents; shown is a random part of those with a known target gene and a result. In the full data, about 1,210 (5%) are marked active. 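Inactive calls also include excluded dsRNAs with several or no targets, genes unexpressed in JW18, and well A1, regardless of score.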 Reagents against one gene are numbered here. Names joined by + are all predicted targets of the reagent.

CG15712 scored Wolbachia per cell robust z, rep 1 = 0.751; Wolbachia per cell robust z, rep 2 = 1.09; Wolbachia per cell robust z, rep 3 = 0.734; inactive. Knock-down of CG6574 gave: Wolbachia per cell robust z, rep 1 = 0.26; Wolbachia per cell robust z, rep 2 = 1.11; Wolbachia per cell robust z, rep 3 = 0.606; inactive. For CG5126 the deposit lists Wolbachia per cell robust z, rep 1 = -1.02; Wolbachia per cell robust z, rep 2 = -0.309; Wolbachia per cell robust z, rep 3 = 0.554; inactive. Nazo showed Wolbachia per cell robust z, rep 1 = 0.53; Wolbachia per cell robust z, rep 2 = -0.329; Wolbachia per cell robust z, rep 3 = -0.146; inactive. Ugt35E1 #1 showed Wolbachia per cell robust z, rep 1 = -0.0431; Wolbachia per cell robust z, rep 2 = 0.285; Wolbachia per cell robust z, rep 3 = 0.783; inactive. For Ugt35E1 #2, the entry reads Wolbachia per cell robust z, rep 1 = -0.207; Wolbachia per cell robust z, rep 2 = -2.04; Wolbachia per cell robust z, rep 3 = -1.32; inactive.

Knock-down of Ttc19 resulted in: Wolbachia per cell robust z, rep 1 = -7.72; Wolbachia per cell robust z, rep 2 = -0.602; Wolbachia per cell robust z, rep 3 = -0.138; inactive. For CG43373 + CG42514 the deposit lists Wolbachia per cell robust z, rep 1 = 0.502; Wolbachia per cell robust z, rep 2 = 0.163; Wolbachia per cell robust z, rep 3 = 0.343; inactive. Silencing of lama gave: Wolbachia per cell robust z, rep 1 = 0.664; Wolbachia per cell robust z, rep 2 = -0.116; Wolbachia per cell robust z, rep 3 = 0.516; inactive. conu scored Wolbachia per cell robust z, rep 1 = -1.11; Wolbachia per cell robust z, rep 2 = -0.717; Wolbachia per cell robust z, rep 3 = 0.413; inactive. Knock-down of kdn resulted in: Wolbachia per cell robust z, rep 1 = -0.0668; Wolbachia per cell robust z, rep 2 = 0.327; Wolbachia per cell robust z, rep 3 = -0.00772; inactive.

Laid out differently: 3 of the entries above
{"predicted target": "Ugt35E1", "dsRNA no.": 2, "Wolbachia per cell robust z, rep 1": -0.207, "Wolbachia per cell robust z, rep 2": -2.04, "Wolbachia per cell robust z, rep 3": -1.32, "outcome": "inactive"}
{"predicted target": "Ttc19", "dsRNA no.": 1, "Wolbachia per cell robust z, rep 1": -7.72, "Wolbachia per cell robust z, rep 2": -0.602, "Wolbachia per cell robust z, rep 3": -0.138, "outcome": "inactive"}
{"predicted target": "CG43373 + CG42514", "dsRNA no.": 1, "Wolbachia per cell robust z, rep 1": 0.502, "Wolbachia per cell robust z, rep 2": 0.163, "Wolbachia per cell robust z, rep 3": 0.343, "outcome": "inactive"}

The list goes on.
For Npc2g, the entry reads Wolbachia per cell robust z, rep 1 = 1.15; Wolbachia per cell robust z, rep 2 = -0.128; Wolbachia per cell robust z, rep 3 = 1.47; inactive. Against CG12446, the entry reads Wolbachia per cell robust z, rep 1 = 0.704; Wolbachia per cell robust z, rep 2 = 0.282; Wolbachia per cell robust z, rep 3 = 0.302; inactive. CG14325 gave Wolbachia per cell robust z, rep 1 = 1.3; Wolbachia per cell robust z, rep 2 = -4.3; Wolbachia per cell robust z, rep 3 = -0.149; inactive. With knock-down of CG34231, the screen gave Wolbachia per cell robust z, rep 1 = -3.53; Wolbachia per cell robust z, rep 2 = 0.202; Wolbachia per cell robust z, rep 3 = 0.244; inactive. With knock-down of aln, the record shows Wolbachia per cell robust z, rep 1 = 0.184; Wolbachia per cell robust z, rep 2 = -3.04; Wolbachia per cell robust z, rep 3 = -0.493; inactive. Against Tsp42A, the values are Wolbachia per cell robust z, rep 1 = -2.37; Wolbachia per cell robust z, rep 2 = -0.315; Wolbachia per cell robust z, rep 3 = 0.078; inactive.

Silencing of sc #1 resulted in: Wolbachia per cell robust z, rep 1 = 0.148; Wolbachia per cell robust z, rep 2 = 0.14; Wolbachia per cell robust z, rep 3 = 1.14; inactive. After knock-down of sc #2 the results were Wolbachia per cell robust z, rep 1 = 0.986; Wolbachia per cell robust z, rep 2 = 0.663; Wolbachia per cell robust z, rep 3 = -1.11; inactive. With knock-down of mthl15, the screen gave Wolbachia per cell robust z, rep 1 = -0.925; Wolbachia per cell robust z, rep 2 = -1.4; Wolbachia per cell robust z, rep 3 = -0.632; inactive. With knock-down of PolZ1 #1, the record shows Wolbachia per cell robust z, rep 1 = 1.74; Wolbachia per cell robust z, rep 2 = 1.45; Wolbachia per cell robust z, rep 3 = 0.153; inactive. For PolZ1 #2 the deposit lists Wolbachia per cell robust z, rep 1 = 0.869; Wolbachia per cell robust z, rep 2 = -0.0831; Wolbachia per cell robust z, rep 3 = 0.656; inactive. wash showed Wolbachia per cell robust z, rep 1 = -0.145; Wolbachia per cell robust z, rep 2 = 0.36; Wolbachia per cell robust z, rep 3 = -2.37; inactive.

Depletion of SdhD came out at: Wolbachia per cell robust z, rep 1 = 0.256; Wolbachia per cell robust z, rep 2 = -0.238; Wolbachia per cell robust z, rep 3 = -2.74; inactive.
